# Share of PSTVd loop 6 variants by leaf site

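Three N. benthamiana plants were inoculated with the whole mutant pool. Progeny were sequenced from the inoculated region (day 5), the margin of the inoculated leaf (day 10) and systemic leaves (day 12).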

Region: loop 6 of PSTVd (intermediate strain), upper and lower strand joined, each 5' to 3', the first 5 letters being the upper strand, closing pairs included. Wild type: UGACCGCGAG. Varied positions (N): UNNNCGNNNG.

Values are reads per thousand in the sample; higher means more abundant, 0 means not found. Each value is the mean of three plants. "Pool" is the share in the plasmid pool used as inoculum, on the same scale. The inoculated region was read from the minus strand, the other sites from the plus strand. For reference, wild type rose from 20.7 per thousand in the pool to 195, 198, 203 (inoculated region), 629, 591, 734 (leaf margin) and 942, 870, 868 (systemic leaves). The authors trace changes outside the varied positions to PCR and sequencing errors or to mutation in the plant; presence does not show that a variant is infectious alone. Samples held 36,220 to 57,551 reads, so the smallest values rest on one or two reads.

* UCGGCGACCG (pool 0.222): inoculated region 0.0714; leaf margin 0; systemic leaves 0
* UCUCCGACCG (pool 0.301): inoculated region 0.0723; leaf margin 0.00773; systemic leaves 0
* UUGACGCGAG (pool 0.183): inoculated region 0.167; leaf margin 0.257; systemic leaves 0.0273
* UCAUCGGCUG (pool 0.248): inoculated region 0.0659; leaf margin 0.00920; systemic leaves 0
* UACACGUGUG (pool 0.170): inoculated region 0.0948; leaf margin 0.0232; systemic leaves 0
* UACACGAAUG (pool 0.261): inoculated region 0.102; leaf margin 0.00920; systemic leaves 0
* UUUGCGGAUG (pool 0.157): inoculated region 0.0599; leaf margin 0.0184; systemic leaves 0
* UAAUCGCAAG (pool 0.248): inoculated region 0.794; leaf margin 0.0723; systemic leaves 0
* UAUCCGUGUG (pool 0.288): inoculated region 0.0952; leaf margin 0.00920; systemic leaves 0
* UUGCCGGAGG (pool 0.275): inoculated region 0.0831; leaf margin 0; systemic leaves 0.00684
* UCAACGCAAG (pool 0.105): inoculated region 0.696; leaf margin 0.0723; systemic leaves 0.00684
* UAUGCGCGUG (pool 0.144): inoculated region 0.108; leaf margin 0.0169; systemic leaves 0
* UAGGCGCCCG (pool 0.418): inoculated region 0.0413; leaf margin 0.00773; systemic leaves 0.00673
* UCUCCGGCUG (pool 0.144): inoculated region 0.0773; leaf margin 0; systemic leaves 0
* UUCGCGGUAU (pool 0.0131): inoculated region 0; leaf margin 0; systemic leaves 0
* UACGCGACCG (pool 0.118): inoculated region 0.0714; leaf margin 0; systemic leaves 0
* GUCGCGUUGG (pool 0.0131): inoculated region 0; leaf margin 0; systemic leaves 0
* UGAUCGACCG (pool 0.157): inoculated region 0.0835; leaf margin 0.0184; systemic leaves 0
* UUUCCGGAAC (pool 0.0131): inoculated region 0; leaf margin 0; systemic leaves 0
* UUUGCGUCGG (pool 0.157): inoculated region 0.0779; leaf margin 0.00920; systemic leaves 0.00684
* UAAGCGUGAG (pool 0.327): inoculated region 0.590; leaf margin 0.0515; systemic leaves 0.0271
* UGCACGAAAG (pool 0.144): inoculated region 0.0893; leaf margin 0; systemic leaves 0
* UUGCCGCGUU (pool 0.0131): inoculated region 0; leaf margin 0; systemic leaves 0
* UCUCCGGUAG (pool 0.235): inoculated region 0.114; leaf margin 0; systemic leaves 0
* UCGCCGCGAG (pool 0.209): inoculated region 0.119; leaf margin 0.0966; systemic leaves 0.0443
* UCUUCGUUCG (pool 0.301): inoculated region 0.137; leaf margin 0.00920; systemic leaves 0
* UGGUCGGCAG (pool 0.209): inoculated region 0.0714; leaf margin 0; systemic leaves 0
* UCUGCGACCG (pool 0.235): inoculated region 0.0836; leaf margin 0; systemic leaves 0
* UGGGCGAUAG (pool 0.261): inoculated region 0.137; leaf margin 0.0788; systemic leaves 0
* UGAUCGCUUG (pool 0.549): inoculated region 0.0844; leaf margin 0; systemic leaves 0
* UGAACGUUUG (pool 0.366): inoculated region 0.108; leaf margin 0; systemic leaves 0
* UAUACGGCCG (pool 0.275): inoculated region 0.648; leaf margin 0.0276; systemic leaves 0.0263
* UUUCCGAACG (pool 0.222): inoculated region 0.0889; leaf margin 0.0309; systemic leaves 0
* UGUACGAUCG (pool 0.327): inoculated region 0.119; leaf margin 0; systemic leaves 0
* UGAUCGAAUG (pool 0.366): inoculated region 0.0772; leaf margin 0.0155; systemic leaves 0
* UGGUCGUGGG (pool 0.209): inoculated region 0.0889; leaf margin 0.00773; systemic leaves 0
* UCGGCGAUGG (pool 0.366): inoculated region 0.0422; leaf margin 0; systemic leaves 0.0137
* UAUACGACCG (pool 0.209): inoculated region 0.120; leaf margin 0.00773; systemic leaves 0
* UUGACGCUUG (pool 0.275): inoculated region 0.113; leaf margin 0; systemic leaves 0
* UGGUCGCCAG (pool 0.157): inoculated region 0.0888; leaf margin 0; systemic leaves 0.0205

Extract of 3 entries:

With UGAACGUUUG (pool 0.366) the assay gave inoculated region 0.108; leaf margin 0; systemic leaves 0.
With UGAUCGCUUG (pool 0.549) the assay gave inoculated region 0.0844; leaf margin 0; systemic leaves 0.
With UUUCCGAACG (pool 0.222) the assay gave inoculated region 0.0889; leaf margin 0.0309; systemic leaves 0.

From the data files of Wu et al. 2024, doi:10.1371/journal.ppat.1012142.